Measured values from several laboratories, pooled; numbers as filed in NIAID ChemDB.

An empty or dashed field is not shown. Lines come from different laboratories, so protocols vary. A number after MIC or MFC names an inhibition level or a share of isolates. CCn: concentration that lowers growth or viability of the cells by n%. ECn is the concentration giving n% inhibition of infection, replication or growth. Inhibition is in % at the dose shown (toxicity tests: loss of growth or viability). ICn is the concentration giving n% inhibition.

Cc1ccc(-c2ccc(C=C3SC(=S)N(c4ccc(C(=O)O)cc4)C3=O)o2)s1 ; test: target ; agent: Bovine viral diarrhea virus ; target: NS5 polymerase ; endpoint: IC50 ; result: ≤1 µM
O=S(=O)([O-])c1cc(NS(=O)(=O)c2ccccc2)c2c(S(=O)(=O)[O-])cc(S(=O)(=O)[O-])cc2c1 ; method: cytopathic effect ; strain: TYPE 3 ; test: culture ; agent: Adenovirus ; dose: 10 µg/mL ; endpoint: inhibition ; cells: Human embryonic lung cells ; result: 60%
O=c1[nH]c(=O)n([C@@H]2O[C@H](CO)[C@@H](O)[C@@H]2O)cc1/C=C/Br ; method: plaque count ; strain: KANNO ; test: culture ; agent: Varicella zoster virus ; dose: 0.0001 µg/mL ; endpoint: inhibition ; cells: HELF ; result: 69%
CCC(CC)O[C@@H]1C=C(C(=O)O)C[C@H](N)[C@H]1NC(C)=O ; strain: H1N1 A/PR/8/34 ; test: culture ; agent: Influenza A virus ; endpoint: EC50 ; cells: MDCK ; result: 0.22 µM
Cc1ccc(-c2ccc(C=C3SC(=S)N(CCC(=O)O)C3=O)o2)nc1 ; test: target ; agent: Bovine viral diarrhea virus ; target: NS5 polymerase ; endpoint: IC50 ; result: ≤1 µM
C=Cc1cn([C@@H]2O[C@H](CO)[C@@H](O)[C@@H]2O)c(=O)[nH]c1=O ; method: plaque count ; strain: Kawaguchi ; test: culture ; agent: Varicella zoster virus ; dose: 0.1 µg/mL ; endpoint: inhibition ; cells: HELF ; result: 58%
COc1cc(Cc2sc3nc(N)nc(N)c3c2C)c(Br)c(OC)c1OC ; strain: TYPE 1 ; test: target ; agent: Cryptosporidium parvum ; target: Dihydrofolate reductase ; endpoint: IC50 ; result: 0.78 µM
CCc1cn([C@@H]2O[C@H](CO)[C@@H](O)[C@@H]2O)c(=O)[nH]c1=O ; method: plaque count ; strain: Ohtomo ; test: culture ; agent: Varicella zoster virus ; dose: 1000 µg/mL ; endpoint: inhibition ; cells: HELF ; result: 63%
CCN(CC)C(=O)c1c(OC)cccc1-c1ccc(C=C2SC(=S)N(c3ccc(C(=O)O)cc3)C2=O)o1 ; test: target ; agent: Bovine viral diarrhea virus ; target: NS5 polymerase ; endpoint: IC50 ; result: ≤1 µM
Nc1ccc2cc(S(=O)(=O)O)cc(S(=O)(=O)O)c2c1 ; method: cytopathic effect ; strain: TYPE 3 ; test: culture ; agent: Adenovirus ; dose: 10 µg/mL ; endpoint: inhibition ; cells: Human embryonic lung cells ; result: 0%
O=C(O)c1ccc(N2C(=O)C(=Cc3ccc(-c4cc5ccccc5s4)o3)SC2=S)cc1 ; test: target ; agent: Bovine viral diarrhea virus ; target: NS5 polymerase ; endpoint: IC50 ; result: ≤1 µM
CSc1ccc(-c2cncc(N3CCC(c4ccccc4)CC3)n2)cc1 ; test: target ; agent: Cytomegalovirus ; target: UL97 kinase ; dose: 1 µM ; endpoint: inhibition ; result: <50%
Nc1cc(S(=O)(=O)[O-])cc2cc(S(=O)(=O)[O-])ccc12 ; method: cytopathic effect ; test: culture ; agent: Rhinovirus ; dose: 50 µg/mL ; endpoint: inhibition ; cells: Human amnion AV3 cells ; result: 10%
Cc1cccc(N2CCN(c3cncc(-c4cc5ccccc5s4)n3)CC2C)c1 ; test: target ; agent: Cytomegalovirus ; target: UL97 kinase ; endpoint: IC50 ; result: <100 µM
O=C(NCC1CCc2ccccc2N1)Nc1cccc2ccccc12 ; test: toxicity ; endpoint: CC50 ; cells: PBMC ; result: 50 µM
CC(=O)c1ccc(N2CCN(c3cncc(-c4ccccc4C(C)=O)n3)CC2)cc1 ; test: target ; agent: Cytomegalovirus ; target: UL97 kinase ; endpoint: IC50 ; result: <100 µM
CCO/N=C/c1ccc(OCCC2CCN(c3ccc(Cl)nn3)CC2)cc1 ; method: neutral red ; strain: A2#58 (ICAM-1 receptor group 50) ; test: culture ; agent: Rhinovirus ; endpoint: EC50 ; cells: KB ; result: 0.023 µM
COc1cccc(-c2cncc(N3CCN(c4ccccn4)CC3)n2)c1 ; test: target ; agent: Cytomegalovirus ; target: UL97 kinase ; dose: 1 µM ; endpoint: inhibition ; result: <50%
C=CCc1ccc(O)c(OC)c1 ; method: turbidity ; strain: 2993 ; test: culture ; agent: Candida glabrata ; endpoint: MIC90 ; result: 495 µg/mL
O=C(Cn1c(-c2cscn2)nc2ccccc21)Nc1ccc(Br)cc1 ; method: fluorescence / absorbance ; test: host protein ; agent: Human ; target: IMPDH2 ; dose: 5 µM ; endpoint: inhibition ; result: ≤20%
Fc1ccc(N2CCCCC2)c(NC(=S)c2ccncc2)c1 ; method: kinase activity ; test: host protein ; target: LIMK1 ; dose: 10 µM ; endpoint: inhibition ; result: 12%
O=C(O)CN1C(=O)C(=Cc2ccc(-c3ccc(Cl)cc3)o2)SC1=S ; test: target ; agent: Bovine viral diarrhea virus ; target: NS5 polymerase ; endpoint: IC50 ; result: ≤1 µM
O=S(=O)([O-])c1ccc(NS(=O)(=O)c2ccccc2)c2c(S(=O)(=O)[O-])cccc12 ; method: cytopathic effect ; test: culture ; agent: Herpes simplex virus ; dose: 5 µg/mL ; endpoint: inhibition ; cells: Human amnion AV3 cells ; result: 0%
Cc1cn([C@@H]2O[C@H](CO)[C@@H](O)[C@@H]2O)c(=O)[nH]c1=O ; method: plaque count ; strain: YS ; test: culture ; agent: Varicella zoster virus ; dose: 0.01 µg/mL ; endpoint: inhibition ; cells: HELF ; result: 0%
Cc1ccc(-c2cncc(N3CCN(c4ccncc4)CC3)n2)cc1 ; test: target ; agent: Cytomegalovirus ; target: UL97 kinase ; endpoint: IC50 ; result: <10 µM
O=c1[nH]c(=O)n([C@H]2C[C@H](O)[C@@H](CO)O2)cc1I ; method: plaque count ; strain: Ohtomo ; test: culture ; agent: Varicella zoster virus ; dose: 1 µg/mL ; endpoint: inhibition ; cells: HELF ; result: 97%
Nc1nc(N)c2c(n1)CCC(Cc1ccc(Cl)c(Cl)c1)C2 ; strain: TYPE 2 ; test: target ; agent: Cryptosporidium parvum ; target: Dihydrofolate reductase ; endpoint: IC50 ; result: 0.065 µM
CSc1ccccc1-c1cncc(N2CCN(c3ccncc3)CC2)n1 ; test: target ; agent: Cytomegalovirus ; target: UL97 kinase ; endpoint: IC50 ; result: <100 µM
Cc1ccc(S(=O)(=O)NCCc2ccc3c(n2)NCCC3)cc1F ; test: toxicity ; endpoint: CC50 ; cells: PBMC ; result: 50 µM
Cc1cc(CCCOc2c(C)cc(-c3noc(C(F)(F)F)n3)cc2C)on1 ; method: cytopathic effect / visual reading ; strain: Isolate 6 ; test: culture ; agent: Rhinovirus ; endpoint: EC50 ; cells: OHIO HELA-I ; result: 0.1 µg/mL
COc1c(-c2ccc3cc(NS(C)(=O)=O)ccc3c2)cc(-n2ccc(=O)[nH]c2=O)cc1C(C)(C)C ; test: host protein ; target: Human polymerase gamma ; endpoint: IC50 ; result: >100 µM
O=C(Cn1c(-c2nccs2)nc2ccccc21)Nc1ccc2ccccc2c1 ; method: fluorescence / absorbance ; test: host protein ; agent: Human ; target: IMPDH2 ; endpoint: IC50 ; result: ≥40 µM
O=C(NCCc1ccc2c(c1)NCCC2)Nc1ccc(C(F)(F)F)cc1 ; test: toxicity ; endpoint: CC50 ; cells: PBMC ; result: 50 µM
CC(=O)c1cccc(-c2cncc(N3CCN(c4cccc(Cl)c4)CC3)n2)c1 ; test: target ; agent: Cytomegalovirus ; target: UL97 kinase ; dose: 1 µM ; endpoint: inhibition ; result: <50%
CN(Cc1ccc2nc(N)nc(N)c2n1)c1ccc(C(=O)NC(CO)CCO)cc1 ; strain: TYPE 1 ; test: target ; agent: Cryptosporidium parvum ; target: Dihydrofolate reductase ; endpoint: IC50 ; result: 2.4 µM
Nc1c(S(=O)(=O)O)cc2cc(S(=O)(=O)O)cc(O)c2c1O ; method: cytopathic effect ; test: culture ; agent: Rhinovirus ; dose: 10 µg/mL ; endpoint: inhibition ; cells: Human amnion AV3 cells ; result: 40%
CC(C)(C)C1CCc2nc(N)nc(N)c2C1 ; strain: TYPE 2 ; test: target ; agent: Cryptosporidium parvum ; target: Dihydrofolate reductase ; endpoint: IC50 ; result: 0.21 µM
O=S(=O)(O)CO ; method: cytopathic effect ; test: culture ; agent: Herpes simplex virus ; dose: 10 µg/mL ; endpoint: inhibition ; cells: Human amnion AV3 cells ; result: 70%
COc1ccc(N2CCN(c3cncc(-c4cccc(OC)c4OC)n3)CC2)cc1OC ; test: target ; agent: Cytomegalovirus ; target: UL97 kinase ; endpoint: IC50 ; result: <100 µM
Nc1nc(N)c2c(n1)Cc1ccc(Cl)cc1-2 ; strain: TYPE 2 ; test: target ; agent: Cryptosporidium parvum ; target: Dihydrofolate reductase ; endpoint: IC50 ; result: >10 µM
Cc1ccnc2c1NC(=O)c1cccnc1N2C1CC1 ; test: host protein ; agent: Human ; target: DNA polymerase alpha ; endpoint: IC50 ; result: >24 µM
O=C(Cc1ccccc1)NCCc1ccc2c(n1)NCCC2 ; test: toxicity ; endpoint: CC50 ; cells: PBMC ; result: 12 µM
O=C(O)CCN1C(=O)C(=Cc2ccc(-c3ccc(Cl)c(Cl)c3)o2)SC1=S ; test: target ; agent: Bovine viral diarrhea virus ; target: NS5 polymerase ; endpoint: IC50 ; result: ≤1 µM
O=C(Cn1c(-c2cscn2)nc2ccccc21)Nc1ccc2ccccc2c1 ; method: fluorescence / absorbance ; test: host protein ; agent: Human ; target: IMPDH2 ; dose: 5 µM ; endpoint: inhibition ; result: ≤10%
CN(C)c1ccc(-c2cncc(N3CCN(c4ccc(Cl)cc4)CC3)n2)cc1 ; test: target ; agent: Cytomegalovirus ; target: UL97 kinase ; endpoint: IC50 ; result: <100 µM
O=S(=O)(NCCc1ccc2c(n1)NCCC2)c1ccccc1 ; test: toxicity ; endpoint: CC50 ; cells: PBMC ; result: 50 µM

7 of the rows above, restated:

smiles | method | strain | test | agent | target | dose | endpoint | cells | result
Cc1ccc(S(=O)(=O)NCCc2ccc3c(n2)NCCC3)cc1F | - | - | toxicity | - | - | - | CC50 | PBMC | 50 µM
Nc1ccc2cc(S(=O)(=O)O)cc(S(=O)(=O)O)c2c1 | cytopathic effect | TYPE 3 | culture | Adenovirus | - | 10 µg/mL | inhibition | Human embryonic lung cells | 0%
CN(Cc1ccc2nc(N)nc(N)c2n1)c1ccc(C(=O)NC(CO)CCO)cc1 | - | TYPE 1 | target | Cryptosporidium parvum | Dihydrofolate reductase | - | IC50 | - | 2.4 µM
O=C(Cn1c(-c2nccs2)nc2ccccc21)Nc1ccc2ccccc2c1 | fluorescence / absorbance | - | host protein | Human | IMPDH2 | - | IC50 | - | ≥40 µM
Nc1nc(N)c2c(n1)Cc1ccc(Cl)cc1-2 | - | TYPE 2 | target | Cryptosporidium parvum | Dihydrofolate reductase | - | IC50 | - | >10 µM
Cc1ccc(-c2ccc(C=C3SC(=S)N(c4ccc(C(=O)O)cc4)C3=O)o2)s1 | - | - | target | Bovine viral diarrhea virus | NS5 polymerase | - | IC50 | - | ≤1 µM
COc1c(-c2ccc3cc(NS(C)(=O)=O)ccc3c2)cc(-n2ccc(=O)[nH]c2=O)cc1C(C)(C)C | - | - | host protein | - | Human polymerase gamma | - | IC50 | - | >100 µM